A mixed list of measured activities; the numbers were collected in NIAID ChemDB.

Common to all: tests in culture; organism: Mycobacterium fortuitum; read-out: MIC90

MIC50, MIC90 and the like: level of inhibition, or share of isolates inhibited.

structure | strain or isolate | read by | value
CC1CN(c2cc3c(cc2F)c(=O)c(C(=O)O)cn3-c2ccc(F)cc2F)CCN1 | 25 isolates | - | 8 µg/mL
NCC[C@H](O)C(=O)N[C@@H]1C[C@H](N)[C@@H](O[C@H]2O[C@H](CN)[C@@H](O)[C@H](O)[C@H]2O)[C@H](O)[C@H]1O[C@H]1O[C@H](CO)[C@@H](O)[C@H](N)[C@H]1O | 31 isolates | - | 16 µg/mL
Cc1noc2ncn(/N=C/c3ccc(Cl)c(Cl)c3)c(=O)c12 | PCM 672 | resazurin | >100 µg/mL
NCC[C@H](O)C(=O)N[C@@H]1C[C@H](N)[C@@H](O[C@H]2O[C@H](CN)[C@@H](O)[C@H](O)[C@H]2O)[C@H](O)[C@H]1O[C@H]1O[C@H](CO)[C@@H](O)[C@H](N)[C@H]1O | - | broth dilution | ≤2 µg/mL
Cc1ccc(/C=N/n2c(C)nc3onc(C)c3c2=O)cc1 | PCM 672 | resazurin | >100 µg/mL
CC[C@H]1OC(=O)[C@H](C)[C@@H](O[C@H]2C[C@@](C)(OC)[C@@H](O)[C@H](C)O2)[C@H](C)[C@@H](O[C@@H]2O[C@H](C)C[C@H](N(C)C)[C@H]2O)[C@](C)(O)C[C@@H](C)C(=O)[C@H](C)[C@@H](O)[C@]1(C)O | 25 isolates | - | >8 µg/mL
CC(C)N=c1cc2n(-c3ccc(Cl)cc3)c3ccccc3nc-2cc1Nc1ccc(Cl)cc1 | - | fluorescence | 0.276 µg/mL
Cc1noc2ncn(/N=C/c3ccc(O)cc3)c(=O)c12 | PCM 672 | resazurin | >100 µg/mL
CC1COc2c(N3CCN(C)CC3)c(F)cc3c(=O)c(C(=O)O)cn1c23 | 25 isolates | - | >4 µg/mL
Cc1noc(N)c1C(=O)NN | PCM 672 | resazurin | >100 µg/mL
CN[C@@H]1[C@H](O[C@H]2[C@H](O[C@H]3[C@H](O)[C@@H](O)[C@H](N=C(N)N)[C@@H](O)[C@@H]3N=C(N)N)O[C@@H](C)[C@]2(O)C=O)O[C@@H](CO)[C@H](O)[C@H]1O | 31 isolates | - | >64 µg/mL
C[C@@H]1CN(c2c(F)c(N)c3c(=O)c(C(=O)O)cn(C4CC4)c3c2F)C[C@H](C)N1 | 25 isolates | - | 2 µg/mL
NC[C@@H]1O[C@H](O[C@H]2[C@@H](O)[C@H](O[C@@H]3[C@@H](O)[C@H](N)C[C@H](N)[C@H]3O[C@H]3O[C@H](CN)[C@@H](O)[C@H](O)[C@H]3N)O[C@@H]2CO)[C@H](N)[C@@H](O)[C@@H]1O | 31 isolates | - | 16 µg/mL
CN1CCN(c2c(F)cc3c(=O)c(C(=O)O)cn(CCF)c3c2F)CC1 | 18367 | - | 3.13 µg/mL
Cc1noc2ncn(/N=C/c3ccc(Cl)cc3Cl)c(=O)c12 | PCM 672 | resazurin | 62.5 µg/mL
CC1COc2c(N3CCN(C)CC3)c(F)cc3c(=O)c(C(=O)O)cn1c23 | 20 strains | - | 3.13 µg/mL
Cc1noc2nc(C)n(/N=C/c3ccc(O)cc3)c(=O)c12 | PCM 672 | resazurin | >100 µg/mL
C[C@H]1COc2c(N3CCN(C)CC3)c(F)cc3c(=O)c(C(=O)O)cn1c23 | 25 isolates | - | 4 µg/mL

Repeating the final 2 entries:

{"structure": "Cc1noc2nc(C)n(/N=C/c3ccc(O)cc3)c(=O)c12", "strain or isolate": "PCM 672", "read by": "resazurin", "value": ">100 µg/mL"}
{"structure": "C[C@H]1COc2c(N3CCN(C)CC3)c(F)cc3c(=O)c(C(=O)O)cn1c23", "strain or isolate": "25 isolates", "value": "4 µg/mL"}

Blank or dashed fields: not listed here. Rows are shuffled and stem from different studies.